Here are results for two substances from publication PMC12647020, “Recombinant expression and functional characterization of influenza A virus neuraminidase in a mammalian cell system” (2025).

The target in experiment [1] is H5N8-tet, tetrameric recombinant neuraminidase (NA) of influenza A virus H5N8/A/Astrakhan/3212/2020 (human | influenza A virus H5N8/A/Astrakhan/3212/2020). In words: negative-stain electron microscopy.
Experiment [2] deals with H2N2-tet, tetrameric recombinant neuraminidase (NA) of influenza A virus H2N2/A/mallard/MT/Y61 with (human | influenza A virus H2N2/A/mallard/MT/Y61). As to the kind of experiment: negative-stain electron microscopy.

As usually defined, the stoichiometry N is the number of molecules, sites or subunits per partner or assembly. “H5N8-tet, tetrameric recombinant neuraminidase (NA) of influenza A virus H5N8/A/Astrakhan/3212/2020”: the stoichiometry N in experiment [1] amounted to 4.

Consider “H2N2-tet, tetrameric recombinant neuraminidase (NA) of influenza A virus H2N2/A/mallard/MT/Y61 with”, for which, in experiment [2], the stoichiometry N came to 4.
